Results of unrelated studies side by side (data: NIAID ChemDB).

Shared fields: whole-cell or culture tests; organism: Hepatitis B virus; read-out: EC50

Rows are shuffled and stem from different studies.

smiles,method,cells,strain or isolate,value
COc1cccc(CNC(=O)c2ccc3ncnc(Nc4ccc(N5CCOCC5)cc4)c3c2)c1,replicon,HUH 9B,-,1–5 µM
Cc1nc(-c2ccc(-n3c(=O)c4c(n5ncc(CC(C)C)c35)CN(C(=O)c3ccc(Cl)c(C(F)(F)F)c3)[C@H](C)C4)cc2)n[nH]1,luminescence,HepG2.117,-,≤0.05 µM
COc1ccc(-n2c(C(=O)NCc3ccccc3-n3cccn3)c3n(c2=O)CCN(C(=O)c2ccc(Br)c(Cl)c2)C3)cc1,PCR,HepG2.117,-,<0.1 µM
Cn1cc(S(=O)(=O)Nc2cnc3c(C(=O)Nc4ccc(F)c(Cl)c4)n(C)nc3c2)cn1,PCR,HepAD38,-,>1000 µM
O=C(NCc1ccccc1)c1c2n(c(=O)n1-c1cccc(Cl)c1)CCN(C(=O)c1ccc(Br)c(Cl)c1)C2,PCR,HepG2.117,-,0.5–5 µM
C[C@H]1Cc2c(n3ncc(Cc4ccccc4)c3n(-c3ccc(-c4nc(=O)on4C)cc3)c2=O)CN1C(=O)c1ccc(Br)c(C(F)(F)F)c1,luminescence,HepG2.117,-,≤0.05 µM
Cn1cc(CCNC(=O)c2ccc3c(C(=O)Nc4ccc(F)c(Cl)c4)n(C)nc3c2)cn1,PCR,HepAD38,-,100–1000 µM
C[C@@H](Oc1ccc([C@@H](C)NC(=O)c2c3n(c(=O)n2-c2ccc(OC4CC4)cc2)CCN(C(=O)c2ccc(Br)c(Cl)c2)C3)c(F)c1)C(N)=O,PCR,HepG2.117,-,0.5–5 µM
CNC(=O)c1ccc(-n2c(=O)c3c(n4ncc(Cc5ccccc5)c24)CN(C(=O)c2ccc(Br)c(C(F)(F)F)c2)[C@H](C)C3)cc1,luminescence,HepG2.117,-,≤0.05 µM
COCCCOc1cc2c(cc1Cl)-c1c(cc(C(=O)O)c(=O)n1C1CC1)[C@H](C)S2(=O)=O,antigen / visual reading / absorbance,Primary human hepatocytes,-,0.05–0.1 µM
COCCNS(=O)(=O)CNc1ccc2c(C(=O)Nc3ccc(F)c(Cl)c3)n(C)nc2c1,PCR,HepAD38,-,<100 µM
Cc1nc(-c2ccc(-n3c(=O)c4c(n5ncc(Cc6ccccc6)c35)CN(C(=O)c3ccc(Br)c(Cl)c3)[C@@H](C)C4)cc2)n[nH]1,luminescence,HepG2.117,-,0.05–0.5 µM
N=c1nc(N)c2ncn([C@@H]3O[C@H](CO)[C@@H](O)[C@H]3O)c2c(N)n1,antigen,2.2.15,-,>10 µM
COc1ccc(-n2c(C(=O)NCc3ccc(Cl)c(OC)c3)c3n(c2=O)CCN(C(=O)c2ccc(Cl)c(Cl)c2)C3)cc1,PCR,HepG2.117,-,0.5–5 µM
c1ccc(COc2ccc(-c3ccc4ncnc(Nc5ccc(N6CCOCC6)cc5)c4c3)cc2)cc1,replicon,HUH 9B,-,1–5 µM
COCCCOc1cc2c(cc1C(=O)N(C)C)-c1c(cc(C(=O)O)c(=O)n1C1CC1)CS2(=O)=O,antigen / visual reading / absorbance,Primary human hepatocytes,-,>0.5 µM
CCOc1ccc(-n2c(C(=O)NCc3ccccc3)c3n(c2=O)CCN(C(=O)c2ccc(Cl)c(Cl)c2)C3)cc1,PCR,HepG2.117,-,0.5–5 µM
Cn1nc2cc(NS(=O)(=O)NCc3ccccn3)ccc2c1C(=O)Nc1ccc(F)c(Cl)c1,PCR,HepAD38,-,<100 µM
COCCCOc1cc2c(cc1C1CCC1)-c1c(cc(C(=O)O)c(=O)n1C1CC1)C(C)S2(=O)=O,antigen / visual reading / absorbance,Primary human hepatocytes,-,0.1–0.5 µM
C[C@H](Oc1ccc([C@@H](C)NC(=O)c2c3n(c(=O)n2-c2ccc(OC4CC4)cc2)CCN(C(=O)c2ccc(Br)c(Cl)c2)C3)c(F)c1)C(N)=O,PCR,HepG2.117,-,0.1–0.5 µM
c1nc(Nc2ccc(N3CCOCC3)cc2)c2cc(-c3ccc(CN4CCOCC4)o3)ccc2n1,replicon,HUH 9B,-,<1 µM
O=C(NCc1ccccc1)c1c2n(c(=O)n1-c1cccnc1)CCN(C(=O)c1ccc(Cl)c(Cl)c1)C2,PCR,HepG2.117,-,>5 µM
CN(c1ccc(N2CCOCC2)cc1)c1ncnc2ccc(I)cc12,replicon,HUH 9B,-,<1 µM
CNC(=O)c1ccc(-n2c(=O)c3c(n4ncc(CC5CC5)c24)CN(C(=O)c2ccc(Br)c(Cl)c2)[C@H](C)C3)cc1,luminescence,HepG2.117,-,≤0.05 µM
Cc1cccc(COC(=O)Nc2ccc3nn(C)c(C(=O)Nc4ccc(F)c(Cl)c4)c3c2)c1,PCR,HepAD38,-,>1000 µM
CN1[C@H](C(=O)Nc2ccc(F)c(Cl)c2)C[C@H](c2ncc(-c3cn(C)cn3)s2)NS1(=O)=O,ELISA,HepG2-NTCP,Genotype D,0.227 µM
c1csc(-c2ccc3ncnc(Nc4ccc(N5CCOCC5)cc4)c3c2)c1,replicon,HUH 9B,-,<1 µM
COCCCOc1cc2c(cc1Cl)-c1c(cc(C(=O)O)c(=O)n1C1CC1)C(C1COC1)S2(=O)=O,antigen / visual reading / absorbance,Primary human hepatocytes,-,0.1–0.5 µM
C[C@@H]1Cn2c(c(C(=O)NCc3ccccc3-n3ccc(F)n3)n(-c3ccc(OC4CC4)cc3)c2=O)CN1C(=O)c1ccc(Br)c(Cl)c1,PCR,HepG2.117,-,0.1–0.5 µM
COCCCOc1cc2c(cc1Cl)-c1c(cc(C(=O)O)c(=O)n1C1CC1)[C@@H](C)S2(=O)=O,antigen / visual reading / absorbance,Primary human hepatocytes,-,0.05–0.1 µM
CC(C)Cc1cnn2c3c(c(=O)n(-c4ccc(-c5nncn5C)cc4)c12)C[C@H](C)N(C(=O)c1ccc(Br)c(Cl)c1)C3,luminescence,HepG2.117,-,0.05–0.5 µM
CS(=O)(=O)c1ccc(-c2ccc3ncnc(Nc4ccc(N5CCOCC5)cc4)c3c2)cc1,replicon,HUH 9B,-,<1 µM
CNC(=O)c1ccc(-n2c(=O)c3c(n4ncc(CC5CCC5)c24)CN(C(=O)c2ccc(Br)c(Cl)c2)CC3)cc1,luminescence,HepG2.117,-,≤0.05 µM
COCCCOc1cc2c(cc1Cl)-c1c(cc(C(=O)O)c(=O)n1C1CC(F)(F)C1)CS2(=O)=O,antigen / visual reading / absorbance,Primary human hepatocytes,-,>0.5 µM
Cn1nc2cc(NS(=O)(=O)NCC3CN(c4ccccc4)C3)ccc2c1C(=O)Nc1ccc(F)c(Cl)c1,PCR,HepAD38,-,>1000 µM
COc1cc2ncnc(Nc3ccc(N4CCOCC4)cc3)c2cc1OC,replicon,HUH 9B,-,5–25 µM
O=C(O)c1cc2c(n(C3CC3)c1=O)-c1cc(Cl)c(OC[C@@H]3COCCO3)cc1S(=O)(=O)C2,antigen / visual reading / absorbance,Primary human hepatocytes,-,0.1–0.5 µM

Repeating the first 2 entries:

smiles | method | cells | strain or isolate | value
COc1cccc(CNC(=O)c2ccc3ncnc(Nc4ccc(N5CCOCC5)cc4)c3c2)c1 | replicon | HUH 9B | - | 1–5 µM
Cc1nc(-c2ccc(-n3c(=O)c4c(n5ncc(CC(C)C)c35)CN(C(=O)c3ccc(Cl)c(C(F)(F)F)c3)[C@H](C)C4)cc2)n[nH]1 | luminescence | HepG2.117 | - | ≤0.05 µM

ECn is the concentration giving n% inhibition of infection, replication or growth. a–b is a range or a potency band. An empty or dashed field is not shown.